Measured values: US20250339817A1, “A PROCESS FOR THE NITRIC OXIDE ABATEMENT THROUGH BIOLOGICAL TREATMENTS” (FUNDACIÓ EURECAT, priority 2022, published 2025)

Test system: biomass from the SBR
Test: Long-term biodegradability test (ultimate BOD, OECD 301 F)

## CC(CC(C)(C)C)CC(C)(C)CC(C)(C)C (centres unmarked) [HNO, 2,2,4,4,6,8,8-heptamethylnonane]
  Degradation in the 28 days of the test: 1%

## CCCCCCCCCCCCCCCC [HEX, n-hexadecane]
  Degradation in the 28 days of the test: 8%
